The test deals with A. baumannii ATCC BAA-1797. As to the kind of experiment: Colony counts of A. baumannii ATCC BAA-1797 treated with 4xMIC for 16 hours. It is filed as cell-based. The settings on record: 1 μg/mL PME, 1 mM PAO, compounds at 4xMIC.

For `O=[As]c1ccccc1` (stereo not shown), the “cell viability after 16 hours of treatment” value is recorded as “cells were still viable”.

The values are drawn from US12655101B2, “Small molecules with antibacterial activity” (NEW MEXICO TECH UNIVERSITY RESEARCH PARK CORPORATION, priority 2021, dated 2026).
